Measurements reported in PubChem BioAssay AID1259414 (Drosophila RNAi Screening Center, 2018).
The deposit covers about 24,000 reagents; below is a random part of those that have a named target and a result. Of all reagents, about 1,210 (5%) got an active call. 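Inactive calls also include excluded dsRNAs with several or no targets, genes unexpressed in JW18, and well A1, regardless of score.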 Entries without a mark were called inactive. The numbers tell different reagents against one gene apart. Names joined by + are all predicted targets of the reagent. No sequences are given here.

- Purpose: 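Genome-wide screen for host control of endosymbiont load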 (primary screen)
- Cells: Drosophila JW18 cells infected with Wolbachia
- Reagent: long dsRNA against Drosophila genes, 0.25 µg dsRNA per well of a 384-well plate
- Duration: 5 days
- Treatment: cells persistently infected with Wolbachia before knock-down; no added drug
- Measured: 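Automated imaging of bacterial rRNA staining divided by host cell count, reported as plate-normalised robust z-score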
- Scale: Wolbachia per cell robust z: higher = more Wolbachia per host cell than the plate typical
- Hit rule: 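Active if absolute robust z reaches 1.5 in two or more of three replicates, leaving out multi- or no-target dsRNAs, genes unexpressed in JW18 and A1 wells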

{"target gene": "HSPC300", "reagent": 1, "Wolbachia per cell robust z, rep 1": "-1.27 (active)", "Wolbachia per cell robust z, rep 2": -2.13, "Wolbachia per cell robust z, rep 3": -2.77}
{"target gene": "Vrp1", "reagent": 1, "Wolbachia per cell robust z, rep 1": -0.157, "Wolbachia per cell robust z, rep 2": 0.516, "Wolbachia per cell robust z, rep 3": -3.71}
{"target gene": "Vrp1", "reagent": 2, "Wolbachia per cell robust z, rep 1": 1.14, "Wolbachia per cell robust z, rep 2": 0.783, "Wolbachia per cell robust z, rep 3": 0.241}
{"target gene": "Tim9b + Pstk", "reagent": 1, "Wolbachia per cell robust z, rep 1": -0.22, "Wolbachia per cell robust z, rep 2": -1.02, "Wolbachia per cell robust z, rep 3": 0.362}
{"target gene": "Tim9b + Pstk", "reagent": 2, "Wolbachia per cell robust z, rep 1": 0.181, "Wolbachia per cell robust z, rep 2": 1.34, "Wolbachia per cell robust z, rep 3": 0.481}
{"target gene": "Obp69a", "reagent": 1, "Wolbachia per cell robust z, rep 1": "-4.12 (active)", "Wolbachia per cell robust z, rep 2": -1.69, "Wolbachia per cell robust z, rep 3": -3.37}
{"target gene": "Obp69a", "reagent": 2, "Wolbachia per cell robust z, rep 1": "0.0283 (active)", "Wolbachia per cell robust z, rep 2": -2.32, "Wolbachia per cell robust z, rep 3": -1.63}
{"target gene": "Upf2", "reagent": 1, "Wolbachia per cell robust z, rep 1": -0.252, "Wolbachia per cell robust z, rep 2": 0.526, "Wolbachia per cell robust z, rep 3": 0.964}
{"target gene": "Upf2", "reagent": 2, "Wolbachia per cell robust z, rep 1": 0.392, "Wolbachia per cell robust z, rep 2": 1.97, "Wolbachia per cell robust z, rep 3": 0.79}
{"target gene": "CG30495", "reagent": 1, "Wolbachia per cell robust z, rep 1": -0.687, "Wolbachia per cell robust z, rep 2": -0.426, "Wolbachia per cell robust z, rep 3": -0.784}
{"target gene": "CG30495", "reagent": 2, "Wolbachia per cell robust z, rep 1": 1.13, "Wolbachia per cell robust z, rep 2": 0.681, "Wolbachia per cell robust z, rep 3": -0.722}
{"target gene": "CG9837", "reagent": 1, "Wolbachia per cell robust z, rep 1": 0.895, "Wolbachia per cell robust z, rep 2": 1.35, "Wolbachia per cell robust z, rep 3": 0.663}
{"target gene": "CG9837", "reagent": 2, "Wolbachia per cell robust z, rep 1": -1.17, "Wolbachia per cell robust z, rep 2": -0.252, "Wolbachia per cell robust z, rep 3": -0.915}
